{"source": "patent US8790898B2", "about": "(priority 2008, dated 2014)", "key": {"[1]": {"system": "CBD1 (C18K) and the Tet peptide", "test": "Immunization of macaques and ELISA of immune sera", "type": "in vivo, cynomolgus macaques (Macaca fascicularis)", "settings": "macaques, before this immunization; dilution giving OD ≧0.1"}, "[2]": {"system": "CBD1 peptide and CBD1- and CBM-based peptides", "test": "Immunization of mice and ELISA of immune sera", "type": "in vivo, BALB/c mice", "settings": "groups of 6 mice, s.c., CFA, ten days after 5th immunization; OD450 ± s.d. at 16,000-fold dilution"}, "primary HIV-1 isolate": {"system": "primary HIV-1 isolate", "settings": "sera 4 weeks after the third immunization, 200- and 400-fold dilution"}, "HIV-1 BZ 167": {"system": "HIV-1 BZ 167", "settings": "pooled mouse sera of each group"}}}
{"substance": "AQYIKANSKFIGITELKKCKSLEQIWNNMTWMQWDK", "values": [{"measurement": "Tet-ELISA titer: Before", "setting": "[1]", "value": "<200"}, {"measurement": "ELISA titer against C17K", "setting": "[2]", "value": "0.58 ± 0.46"}, {"measurement": "macaques whose immune sera manifested HIV-1 neutralizing activity", "setting": "primary HIV-1 isolate", "value": "one out of the three"}, {"measurement": "% inhibition of HIV-1 at 200-fold dilution", "setting": "HIV-1 BZ 167; HIV-1 BZ 167, p24 at 5 days", "value": 30, "unit": "%"}, {"measurement": "Neutralizing activity ID50", "setting": "HIV-1 BZ 167; HIV-1 BZ 167, p24 at 5 days post infection", "value": "100-fold"}]}
